Measurements from PMC10150359 (Journal of Medicinal Chemistry, 2023).

Biological target: soluble EBOV-GP protein (Zaire ebolavirus, UniProt Q05320, A503V/I544T/T262A/V310A)
Details: 100:1 ligand-protein molar ratio, 298 K

Compound	STD-NMR recognition by EBOV-GP, competition
O=C(CCNCCC1CCN(Cc2ccccc2)CC1)NN(c1ccccc1)c1ccccc1 [Compound 11, 3-((2-(1-Benzylpiperidin-4-yl)ethyl)amino)-N′,N′-diphenylpropanehydrazide]	STD effects for the three aromatic rings
CCOC(=O)C1CCN(CC(=O)N(c2ccccc2)c2ccccc2)CC1 [Compound 41, Ethyl 1-(2-(Diphenylamino)-2-oxoethyl)piperidine-4-carboxylate]	weaker binder than 13
